Key:
[1] = target: T1, human ferritin heavy chain (human); experiment: SEC; subunits expressed alone or co-expressed in E. coli BL21(DE3) and assembled in the cells; soluble fraction heated at 60 °C for 15 min, Superose 6 Increase column; subunit ratios by SDS-PAGE; cages seen by TEM (negative stain); conditions: both partners purified
T1 construct: human ferritin heavy chain (FH); gene amplified by PCR from cDNA of human HT29 tumor cells; ≈21.1 kDa printed; The subunit as expressed alone or together with FL in E. coli; alone it forms the 24-subunit cage FHn-100 (labelled form: m3); The vector pET21a is named but no tag is stated; also called FH; source: E. coli BL21(DE3), purified (heat 60 °C, Superose 6 Increase SEC)

[2] = target: the molecule itself; experiment: as above

B1: human ferritin light chain (natural protein, UniProt P02792 1-175, looked up)
chain: MSSQIRQNYSTDVEAAVNSLVNLYLQASYTYLSLGFYFDRDDVALEGVSHFFRELAEEKREGYERLLKMQNQRGGRALFQDIKKPAEDEWGKTPDAMKAAMALEKKLNQALLDLHALGSARTDPHLCDFLETHFLDEEVKLIKKMGDHLTNLHRLGGPEAGLGEYLFERLTLKHD
notes: human ferritin light chain (FL); gene amplified by PCR from cDNA of human HT29 tumor cells; ≈19.9 kDa printed; The subunit as expressed alone or together with FH in E. coli; alone it forms the 24-subunit cage FHn-0 (labelled form: m7); also called FL; source: E. coli BL21(DE3), purified (heat 60 °C, Superose 6 Increase SEC)
Question: Does B1 bind [1]?
Answer: binds

Question: And the “stoichiometry N” value [2]?
Answer: 24 subunits
